We go through 7 molecules from patent US20220033460A1, “IDENTIFICATION AND USE OF T CELL EPITOPES IN DESIGNING DIAGNOSTIC AND THERAPEUTIC APPROACHES FOR COVID-19” (priority 2020, published 2022).

This assay relates to CD8+ T cells. Type of assay: cell-based, human. To be noted: cells of the TCR clonotype specific for the epitope / HLA class I of the same line.

Substitutions are numbered along the chain they refer to.

B1: TCR_107: TCR to … / B*07:02 (protein)
TCR alpha: KQEVTQIPAALSVPEGENLVLNCSFTDSAIYNLQWFRQDPGKGLTSLLLIQSSQREQTSGRLNASLDKSSGRSTLYIAASQPGDSATYLCAVIGGSSNTGKLIFGQGTTLQVKPDIQNPDPAVYQLRDSKSSDKSVCLFTDFDSQTNVSQSKDSDVYITDKTVLDMRSMDFKSNSAVAWSNKSDFACANAFNNSIIPEDTFFPSPESSCDVKLVEKSFETDTNLNFQNLSVIGFRILLLKVAGFNLLMTLRLWSS
TCR beta: KAGVTQTPRYLIKTRGQQVTLSCSPISGHRSVSWYQQTPGQGLQFLFEYFSETQRNKGNFPGRFSGRQFSNSRSEMNVSTLELGDSALYLCASSLAGAQQAFFGQGTRLTVVEDLNKVFPPEVAVFEPSEAEISHTQKATLVCLATGFFPDHVELSWWVNGKEVHSGVSTDPQPLKEQPALNDSRYCLSSRLRVSATFWQNPRNHFRCQVQFYGLSENDEWTQDRAKPVTQIVSAEAWGRADCGFTSVSYQQGVLSATILYEILLGKATLYAVLVSALVLMAMVKRKDF
For B1, the “No. of Cells” value stood at 2.

B2: TCR_13: TCR to … / A*24:02 (protein)
TCR alpha: AQSVAQPEDQVNVAEGNPLTVKCTYSVSGNPYLFWYVQYPNRGLQFLLKYITGDNLVKGSYGFEAEFNKSQTSFHLKKPSALVSDSALYFCAGLGTGRRALTFGSGTRLQVQPNIQNPDPAVYQLRDSKSSDKSVCLFTDFDSQTNVSQSKDSDVYITDKTVLDMRSMDFKSNSAVAWSNKSDFACANAFNNSIIPEDTFFPSPESSCDVKLVEKSFETDTNLNFQNLSVIGFRILLLKVAGFNLLMTLRLWSS
TCR beta: MGTRLFFYVALCLLWTGHVDAGITQSPRHKVTETGTPVTLRCHQTENHRYMYWYRQDPGHGLRLIHYSYGVKDTDKGEVSDGYSVSRSKTEDFLLTLESATSSQTSVYFCAISERDFQETQYFGPGTRLLVLEDLKNVFPPKVAVFEPSEAEISHTQKATLVCLATGFYPDHVELSWWVNGKEVHSGVSTDPQPLKEQPALNDSRYCLSSRLRVSATFWQNPRNHFRCQVQFYGLSENDEWTQDRAKPVTQIVSAEAWGRADCGFTSESYQQGVLSATILYEILLGKATLYAVLVSALVLMAMVKRKDSRG
B2: the “No. of Cells” value turned out to be 9.

B3: TCR_15: TCR to … / A*02:01 (protein)
TCR alpha: RKEVEQDPGPFNVPEGATVAFNCTYSNSASQSFFWYRQDCRKEPKLLMSVYSSGNEDGRFTAQLNRASQYISLLIRDSKLSDSATYLCVVNAPSGNTPLVFGKGTRLSVIANIQNPDPAVYQLRDSKSSDKSVCLFTDFDSQTNVSQSKDSDVYITDKTVLDMRSMDFKSNSAVAWSNKSDFACANAFNNSIIPEDTFFPSPESSCDVKLVEKSFETDTNLNFQNLSVIGFRILLLKVAGFNLLMTLRLWSS
TCR beta: AVVSQHPSWVICKSGTSVKIECRSLDFQATTMFWYRQFPKQSLMLMATSNEGSKATYEQGVEKDKFLINHASLTLSTLTVTSAHPEDSSFYICSARDRQGQNTGELFFGEGSRLTVLEDLKNVFPPKVAVFEPSEAEISHTQKATLVCLATGFYPDHVELSWWVNGKEVHSGVSTDPQPLKEQPALNDSRYCLSSRLRVSATFWQNPRNHFRCQVQFYGLSENDEWTQDRAKPVTQIVSAEAWGRADCGFTSESYQQGVLSATILYEILLGKATLYAVLVSALVLMAMVKRKDSRG
As for B3, the “No. of Cells” value was 9.

B4: TCR_14: TCR to … / A*02:01 (protein)
TCR alpha: RKEVEQDPGPFNVPEGATVAFNCTYSNSASQSFFWYRQDCRKEPKLLMSVYSSGNEDGRFTAQLNRASQYISLLIRDSKLSDSATYLCVVTRSQGNLIFGKGTKLSVKPNIQNPDPAVYQLRDSKSSDKSVCLFTDFDSQTNVSQSKDSDVYITDKTVLDMRSMDFKSNSAVAWSNKSDFACANAFNNSIIPEDTFFPSPESSCDVKLVEKSFETDTNLNFQNLSVIGFRILLLKVAGFNLLMTLRLWSS
TCR beta: DARVTQTPRHKVTEMGQEVTMRCQPILGHNTVFWYRQTMMQGLELLAYFRNRAPLDDSGMPKDRFSAEMPDATLATLKIQPSEPRDSAVYFCASRASGGFNEQFFGPGTRLTVLEDLKNVFPPKVAVFEPSEAEISHTQKATLVCLATGFYPDHVELSWWVNGKEVHSGVSTDPQPLKEQPALNDSRYCLSSRLRVSATFWQNPRNHFRCQVQFYGLSENDEWTQDRAKPVTQIVSAEAWGRADCGFTSESYQQGVLSATILYEILLGKATLYAVLVSALVLMAMVKRKDSRG
Turning to B4, the “No. of Cells” value is 9.

B5: TCR_19: TCR to … / A*24:02 (protein)
TCR alpha: B4 TCR alpha with T91N, R92M, S93A, Q94T, G95D, N96K, K101T, K104R, S106Q, K108F
TCR beta: EPEVTQTPSHQVTQMGQEVILRCVPISNHLYFYWYRQILGQKVEFLVSFYNNEISEKSEIFDDQFSVERPDGSNFTLKIRSTKLEDSAMYFCASGGTNTGELFFGEGSRLTVLEDLKNVFPPKVAVFEPSEAEISHTQKATLVCLATGFYPDHVELSWWVNGKEVHSGVSTDPQPLKEQPALNDSRYCLSSRLRVSATFWQNPRNHFRCQVQFYGLSENDEWTQDRAKPVTQIVSAEAWGRADCGFTSESYQQGVLSATILYEILLGKATLYAVLVSALVLMAMVKRKDSRG
Take B5: the “No. of Cells” value is recorded as 7.

B6: TCR_20: TCR to … / A*02:01 (protein)
TCR alpha: RKEVEQDPGPFNVPEGATVAFNCTYSNSASQSFFWYRQDCRKEPKLLMSVYSSGNEDGRFTAQLNRASQYISLLIRDSKLSDSATYLCVVNPTGTASKLTFGTGTRLQVTLDIQNPDPAVYQLRDSKSSDKSVCLFTDFDSQTNVSQSKDSDVYITDKTVLDMRSMDFKSNSAVAWSNKSDFACANAFNNSIIPEDTFFPSPESSCDVKLVEKSFETDTNLNFQNLSVIGFRILLLKVAGFNLLMTLRLWSS
TCR beta: DSGVTQTPKHLITATGQRVTLRCSPRSGDLSVYWYQQSLDQGLQFLIQYYNGEERAKGNILERFSAQQFPDLHSELNLSSLELGDSALYFCASSVAGGLYEQFFGPGTRLTVLEDLKNVFPPKVAVFEPSEAEISHTQKATLVCLATGFYPDHVELSWWVNGKEVHSGVSTDPQPLKEQPALNDSRYCLSSRLRVSATFWQNPRNHFRCQVQFYGLSENDEWTQDRAKPVTQIVSAEAWGRADCGFTSESYQQGVLSATILYEILLGKATLYAVLVSALVLMAMVKRKDSRG
Consider B6, for which the “No. of Cells” value is 7.

B7: TCR_23: TCR to … / A*24:02 (protein)
TCR alpha: AQSVTQLDSHVSVSEGTPVLLRCNYSSSYSPSLFWYVQHPNKGLQLLLKYTSAATLVKGINGFEAEFKKSETSFHLTKPSAHMSDAAEYFCVVTGAGSYQLTFGKGTKLSVIPNIQNPDPAVYQLRDSKSSDKSVCLFTDFDSQTNVSQSKDSDVYITDKTVLDMRSMDFKSNSAVAWSNKSDFACANAFNNSIIPEDTFFPSPESSCDVKLVEKSFETDTNLNFQNLSVIGFRILLLKVAGFNLLMTLRLWSS
TCR beta: DADVTQTPRNRITKTGKRIMLECSQTKGHDRMYWYRQDPGLGLRLIYYSFDVKDINKGEISDGYSVSRQAQAKFSLSLESAIPNQTALYFCATSDDSEKLFFGSGTQLSVLEDLNKVFPPEVAVFEPSEAEISHTQKATLVCLATGFFPDHVELSWWVNGKEVHSGVSTDPQPLKEQPALNDSRYCLSSRLRVSATFWQNPRNHFRCQVQFYGLSENDEWTQDRAKPVTQIVSAEAWGRADCGFTSVSYQQGVLSATILYEILLGKATLYAVLVSALVLMAMVKRKDF
For B7, the “No. of Cells” value is 6.
